Measured values from several laboratories, pooled; numbers as filed in NIAID ChemDB.

All rows: target-level tests; agent: Human cytomegalovirus; read-out: IC50

Blank or dashed fields: not listed here.

| smiles | method | target | strain | result |
|---|---|---|---|---|
| CC(C(=O)O)P(=O)(O)O |  | DNA polymerase |  | 18 µM |
| CCOc1ccc2ccccc2c1C(=O)Nc1nnc(NCc2cccs2)s1 |  | Polymerase |  | <25 µM |
| O=C(P(=O)(O)O)P(=O)(O)O |  | DNA polymerase |  | 6 µM |
| COc1ccc2c(c1)c1c3c(c4c5ccccc5n(C)c4c1n2CC(O)CN(C)C)C(=O)NC3=O |  | HCMV protein kinase pUL97 |  | >1 µM |
| CCCC(C(=O)O)P(=O)(O)O |  | DNA polymerase |  | 30 µM |
| N[C@@H](CCC(=O)N[C@@H](CSSC[C@H](NC(=O)CC[C@H](N)C(=O)O)C(=O)NCC(=O)O)C(=O)NCC(=O)O)C(=O)O |  | Protease |  | 300 µM |
| O=C(Nc1nnc(NCCCNC2CCCCC2)s1)c1ccc(I)cc1 |  | Polymerase |  | >25 µM |
| CCCCCCCCCC(C(=O)O)P(=O)(O)O |  | DNA polymerase |  | 1.5 µM |
| Cc1cc2nc3c(=O)[nH]c(=O)nc-3n(C[C@H](O)[C@H](O)[C@H](O)CO)c2cc1C |  | Protease |  | 0.3 µM |
| CCCCCC(=O)N[C@@H](CCCC)C(=O)N[C@@H](CC(=O)N(C)C)C(=O)NC(C)C(=O)C(=O)NCc1ccccc1 |  | Protease |  | 0.2 µM |
| CCCCCc1cc(O)cc(O)c1C(=O)Oc1cc(O)c(C(=O)Oc2cc(O)c(C(=O)O)c(CCC)c2)c(CCC)c1 | scintillation proximity / radiometric | HCMV protease |  | 43 µM |
| O=C(Nc1nnc(NCCNc2ccccc2)s1)c1ccc(Br)cc1 |  | Polymerase |  | >25 µM |
| O=C(O)C(O)P(=O)(O)O |  | DNA polymerase |  | 3 µM |
| CCOc1ccc2ccccc2c1C(=O)Nc1nnc(NCCNc2ccccc2)s1 |  | Polymerase |  | <25 µM |
| CC#Cc1cn([C@@H]2O[C@H](CO)[C@@H](O)[C@@H]2O)c(=O)[nH]c1=O |  | DNA polymerase | AD169 | 0.6 µM |
| COc1ccccc1C(=O)Nc1nnc(NCc2ccc3c(c2)OCO3)s1 |  | Polymerase |  | >25 µM |
| Cc1cc2nc3c(=O)[nH]c(=O)nc-3n(CC(O)C(O)C(O)COP(=O)(O)O)c2cc1C |  | Protease |  | 0.3 µM |
| O=C(Nc1nnc(NCC(c2ccccc2)c2ccccc2)s1)c1c(Cl)cccc1Cl |  | Polymerase |  | <25 µM |
| O=C(O)C(=O)O |  | DNA polymerase |  | 130 µM |

Repeating the final 2 entries:

smiles | method | target | strain | result
O=C(Nc1nnc(NCC(c2ccccc2)c2ccccc2)s1)c1c(Cl)cccc1Cl |  | Polymerase |  | <25 µM
O=C(O)C(=O)O |  | DNA polymerase |  | 130 µM

ICn: concentration for n% inhibition. Rows are shuffled and stem from different studies.